The assay concerns the target scFv 43RCA (Macaca fascicularis). Kind of assay: SPR. For orientation: Surface plasmon resonance follows binding to a sensor surface in real time, without labels.

pKd: −log10 of the molar value. Several values for one entry are separate records, joined by “and”; a condition that tells them apart may be missing. Equal values may be shown once.

“ricin (whole toxin, Ricinus communis) (from UniProt P02879) (natural protein)”: the pKd – broadly, the negative decadic logarithm of the Kd, by convention in mol/L – is 10.40 and 10.39; the off-rate (koff) (commonly a measure of how fast the partners let go of each other) was 1.36e-05 s⁻¹; the kon (in general, the rate constant with which the complex forms) was 334000 M⁻¹ s⁻¹.
